Common to all, as to assay: qHTS profiling for inhibitors of Plasmodium falciparum proliferation (AID 504749); also: nearly all actives have a fitted effect of over 60% in size;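 as to activity, negative = inhibition: 0% = DMSO vehicle and full inhibition = artemisinin control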
On the technique in general: Quantitative high-throughput screening tests each substance at several concentrations.

One assay relates to CP329. Particulars: P. falciparum in erythrocytes, SYBR Green DNA, 72 h; series mostly up to 28.7 µM. The essentials:
(§1)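 Each compound contacts P. falciparum-infected red blood cells for 72 h at 37 C; lysis buffer (Tris, EDTA, saponin, Triton X, SYBR Green I) is added and fluorescence measured next morning; values normalized to controls.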

The test system of the next assay is CP335. Particulars: P. falciparum in erythrocytes, SYBR Green DNA, 72 h; series mostly up to 28.7 µM. A digest of the protocol: as §1
The next assay deals with DFO2036. The conditions noted are these: P. falciparum in erythrocytes, SYBR Green DNA, 72 h; at 28.7 µM (top of the series) unless noted. A digest of the protocol:
as §1

Another assay has as its system DIV14. The conditions noted are these: P. falciparum in erythrocytes, SYBR Green DNA, 72 h; at 28.7 µM (top of the series) unless noted. A digest of the protocol: as §1
For another assay, the system named is DIV17. The conditions noted are these: P. falciparum in erythrocytes, SYBR Green DNA, 72 h; at 28.7 µM (top of the series) unless noted. The essentials:
as §1

The next assay relates to DIV30. Particulars: P. falciparum in erythrocytes, SYBR Green DNA, 72 h; at 28.7 µM (top of the series) unless noted. A digest of the protocol: as §1
Another assay has as its system Dd2. The conditions noted are these: P. falciparum in erythrocytes, SYBR Green DNA, 72 h; at 28.7 µM (top of the series) unless noted. The essentials:
as §1

The next assay concerns ECU. Particulars: P. falciparum in erythrocytes, SYBR Green DNA, 72 h; at 28.7 µM (top of the series) unless noted. A digest of the protocol:
as §1

A further assay has as its system FAB9. Particulars: P. falciparum in erythrocytes, SYBR Green DNA, 72 h; at 28.7 µM (top of the series) unless noted. A digest of the protocol: as §1
The test system of a further assay is GB4. The conditions noted are these: P. falciparum in erythrocytes, SYBR Green DNA, 72 h; at 28.7 µM (top of the series) unless noted. A digest of the protocol:
as §1

Another assay has as its system HB3. Particulars: P. falciparum in erythrocytes, SYBR Green DNA, 72 h; series mostly up to 28.7 µM. A digest of the protocol: as §1
The test system of the next assay is ICS. Particulars: P. falciparum in erythrocytes, SYBR Green DNA, 72 h; series mostly up to 28.7 µM. The essentials:
as §1

A further assay has as its system JCK. The conditions noted are these: P. falciparum in erythrocytes, SYBR Green DNA, 72 h; at 28.7 µM (top of the series) unless noted. A digest of the protocol:
as §1

A further assay has as its system N140. Particulars: P. falciparum in erythrocytes, SYBR Green DNA, 72 h; at 28.7 µM (top of the series) unless noted. A digest of the protocol: as §1
Another assay relates to P93_24. Particulars: P. falciparum in erythrocytes, SYBR Green DNA, 72 h; series mostly up to 28.7 µM. A digest of the protocol:
as §1

In another assay the test system is P94_40. The conditions noted are these: P. falciparum in erythrocytes, SYBR Green DNA, 72 h; at 28.7 µM (top of the series) unless noted. A digest of the protocol:
as §1

The subject of another assay is PAD. Particulars: P. falciparum in erythrocytes, SYBR Green DNA, 72 h; series mostly up to 28.7 µM. A digest of the protocol:
as §1

In the next assay the test system is PC15. Particulars: P. falciparum in erythrocytes, SYBR Green DNA, 72 h; at 28.7 µM (top of the series) unless noted. A digest of the protocol: as §1
In another assay the test system is PC26. Particulars: P. falciparum in erythrocytes, SYBR Green DNA, 72 h; at 28.7 µM (top of the series) unless noted. The essentials:
as §1

The next assay deals with PC49. Particulars: P. falciparum in erythrocytes, SYBR Green DNA, 72 h; at 28.7 µM (top of the series) unless noted. The essentials: as §1

The list shows a part of the results, in another mix than the full data. Records with an inconclusive call do not appear. The source made the active and inactive calls. Calls follow the shape of the dose curve; as a rule, active = well fitted inhibition curve with a large enough effect; inconclusive = small, poorly fitted or top-dose-only effect; inactive = flat fitted curve, though single readings scatter.
Potency is read from the fitted curve at half-maximal effect.

Consider `CC(C)OP(=O)(F)OC(C)C`, for which the Potency entry with CP329, in the assay on CP335, in the assay on HB3, in the assay with ICS, in the assay with P93_24 and with PAD was “inactive” throughout. Further, the activity, negative = inhibition is inactive: 0.983% in the assay with DFO2036; inactive: -4.67% in the assay with DIV14; inactive: 2.26% in the assay on DIV17; inactive: -10.6% with DIV30; inactive: 4.72% with Dd2; inactive: 13% in the assay on ECU. Besides, the activity, negative = inhibition is inactive: 0.899% in the assay with FAB9; inactive: -6.35% in the assay on GB4; inactive: -6.78% in the assay with JCK; inactive: 0.351% in the assay with N140; inactive: -1.37% in the assay on P94_40; inactive: -4.9% with PC15. In addition, the figures for the activity, negative = inhibition in the assay on PC26 and with PC49 were inactive: -6.27% and inactive: -2.49%, respectively.
On to `C/C1=C2N=C(/C=C3N=C(/C(C)=C4\[N-][C@@](C)([C@H]5N=C1[C@@](C)(CCC(=O)NC[C@H](C)OP(=O)([O-])O[C@@H]1[C@H](O)[C@H](n6cnc7cc(C)c(C)cc76)O[C@@H]1CO)[C@@H]5CC(N)=O)[C@](C)(CC(N)=O)[C@H]4CCC(N)=O)[C@@](C)(CC(N)=O)[C@@H]\3CCC(N)=O)C(C)(C)[C@@H]/2CCC(N)=O.[C-]#N.[Co+3]`, for which the Potency entry in the assay with CP329, in the assay on CP335, with HB3, in the assay on ICS, in the assay on P93_24 and in the assay on PAD was “inactive” in each case. Moreover, the activity, negative = inhibition in the assay on DFO2036 was inactive: 1.87% [at 12.8 µM]; in the assay on DIV14, inactive: -4.17% [at 12.8 µM]; in the assay on DIV17, inactive: 0.377% [at 12.8 µM]; with DIV30 it was inactive: 0.362% [at 12.8 µM]; with Dd2, inactive: 0.251% [at 12.8 µM]; with ECU, inactive: 9.22% [at 12.8 µM]. For the same molecule, the activity, negative = inhibition in the assay with FAB9 is inactive: 0.957% [at 12.8 µM]; in the assay with GB4, inactive: -15.4% [at 12.8 µM]; in the assay with JCK, inactive: -11.5% [at 12.8 µM]; in the assay with N140 it was inactive: 4.01% [at 12.8 µM]; with P94_40, inactive: 5.76% [at 12.8 µM]; with PC15 it was inactive: 6.72% [at 12.8 µM]. In addition, the activity, negative = inhibition in the assay on PC26 was inactive: -3.59% [at 12.8 µM]; with PC49, inactive: 1.38% [at 12.8 µM].
`O=[N+]([O-])OCC(CO[N+](=O)[O-])(CO[N+](=O)[O-])CO[N+](=O)[O-]`: the Potency with CP329 is active: 9.53 µM; in the assay on CP335, active: 6.01 µM; in the assay with HB3, active: 10 µM; in the assay with ICS, active: 3.98 µM; with P93_24, active: 10 µM; with PAD it was active: 6.31 µM. Moreover, the activity, negative = inhibition in the assay with DFO2036 was inactive: -19.6%; in the assay with Dd2, inactive: -5.3%; in the assay on JCK, inactive: -9.18%; with N140, inactive: -14.3%; with P94_40 it was inactive: -26.8%.
Turning to `O=[N+]([O-])c1cccc([N+](=O)[O-])c1`, the Potency result in the assay with CP329, in the assay on CP335, in the assay with HB3, in the assay with ICS, in the assay with P93_24 and with PAD was “inactive” each time. In addition, the activity, negative = inhibition was inactive: 4.73% in the assay on DFO2036; inactive: -5.12% in the assay on DIV14; inactive: -10.4% with DIV17; inactive: 8.96% in the assay on DIV30; inactive: 1.81% in the assay on Dd2; inactive: 1.23% in the assay on ECU. Moreover, the activity, negative = inhibition in the assay with FAB9 is inactive: 5.06%; with GB4, inactive: -15%; with JCK, inactive: 5.67%; in the assay on N140 it was inactive: -7.92%; with P94_40, inactive: 7%; with PC15, inactive: 9.22%. For the same molecule, the activity, negative = inhibition is inactive: -1.57% with PC26 and inactive: 7.94% in the assay on PC49.

For the origin of these results see PubChem BioAssay (NCATS).
